Data taken from ChEMBL document CHEMBL3988442, “University of Dundee, Small-Polar-MMV Screening Library” (2021).

Values are the deposited “Percent Effect”, in %.
The record does not define 0% and 100%; most values in the screen are far below 50% and negative numbers occur (in some assays of this library far below -100).
The entries come from a sample that favours strong results.
Two or more numbers in one place are separate tests of the same structure; such repeats can differ widely.

Mtb glucose medium: 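Phenotypic screen: M. tuberculosis growth, glucose 7H9 medium, 3 days; the read-out is not stated. Compounds at 50 µM. The record gives no direction; compounds that gave an IC50 in retests scored well above the rest, so higher reads as more growth inhibition. Of about 69,000 compounds tested this way, about 760 (1.1%) reached 50% or more in at least one test.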
Mtb cholesterol medium: 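Whole-cell growth test on Mycobacterium tuberculosis, read after 4 days in a medium based on cholesterol and the lipid DPPC; the read-out is not stated. Concentration: 50 µM. Direction is inferred from retests: higher values go with more growth inhibition. Size under these conditions: about 69,000 compounds, about 370 of them at 50% or above in at least one test.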

* CC(CNC(=O)N1CCN(c2ncccn2)CC1)Cc1cccs1 (centres undefined) : Mtb glucose medium: 5.522%; Mtb cholesterol medium: -10.04%
* CC(C)CCC(C)NC(=O)Nc1ccccn1 (centres undefined) : Mtb glucose medium: 59.94%; Mtb cholesterol medium: 64.13%
* CCc1ccccc1OC1CN(C(=O)c2sccc2N)C1 : Mtb glucose medium: 13.57%; Mtb cholesterol medium: 1.321% & 7.743%
* Cc1csc(C2CCCCN2C(=O)COCc2nc(C)no2)n1 (centres undefined) : Mtb cholesterol medium: -4.685%
* CCc1cc(N(C)Cc2ccno2)n2nc(C)c(C)c2n1 : Mtb glucose medium: 10.4%
* Cc1cc(C)nc(N2CCC(CNC(=O)c3ccccn3)CC2)n1 : Mtb glucose medium: 14.01%
* COCc1nc(N(C)C)ncc1C(=O)NC(C)C : Mtb glucose medium: 7.835%
* CN(Cc1cnn(C)c1)C(=O)NCc1cc(Br)cs1 : Mtb glucose medium: 6.944%; Mtb cholesterol medium: 0.468%
* COc1coc(CN2CCCC(CCc3ccc(F)c(F)c3)C2)cc1=O (centres undefined) : Mtb glucose medium: 48.41% & 49.48%; Mtb cholesterol medium: 53.81%
* CN1CCCCC1c1ncc2c(n1)CCN(Cc1ccc(Cl)c(F)c1)C2 (centres undefined) : Mtb glucose medium: 48.75%
* Cc1cc(C(O)CCNC(=O)COc2ccccc2C)c(C)o1 (centres undefined) : Mtb glucose medium: 2.597% & 18.59%
* NS(=O)(=O)CCN1CCN(c2ccccc2O)CC1 : Mtb glucose medium: 0.07625%; Mtb cholesterol medium: -5.32% & -6.953%
* CCc1nc(NC2CCCN(C(=O)c3cccs3)C2)c2cnn(C)c2n1 (centres undefined) : Mtb cholesterol medium: 51.85%
* Oc1cccc(CNCc2ccc(-n3cncn3)nc2)c1 : Mtb cholesterol medium: -14.43%
* CC(C)C(=O)N1CCN(Cc2cnn(C)c2)CC2(CC(=O)N(C)C2)C1.O=C(O)C(F)(F)F (centres undefined) : Mtb cholesterol medium: -1.975%
* CCc1c(C)n(CCC#N)c2nc3ccccc3n2c1=O : Mtb glucose medium: -17.25% & 60.58%
* O=C(O)CSc1nccc(-c2ccc3c(c2)OCO3)n1 : Mtb glucose medium: 22.92%
* Cc1ccc(C)c(-n2cc(CN3CC[C@@H](O)C3)c(-c3ccccc3)n2)c1 : Mtb glucose medium: 71.73%
* COc1ccc(C[C@H]2CN(c3cc(OC)ncn3)CC[C@H]2OC)cc1.O=C(O)C(F)(F)F : Mtb glucose medium: 28.98% & 24.29%; Mtb cholesterol medium: 8.975%
* Cc1nn(C)c(C)c1CN(CCO)C(=O)C1COc2ccccc2C1 (centres undefined) : Mtb cholesterol medium: 77.41% & -46.01%
* Cl.OC(CNCc1ccccc1C(F)(F)F)c1ccccc1 (centres undefined) : Mtb glucose medium: -22.64%
* CN(C)c1ccc(CC(=O)N2C[C@H](C3CC3)[C@@H](N)C2)cc1 : Mtb glucose medium: -2.606% & 12.36%; Mtb cholesterol medium: -11.08%
* CC(C)c1ccc(-c2nnn(CCNS(C)(=O)=O)n2)cc1 : Mtb glucose medium: 27.6%; Mtb cholesterol medium: -1.477%
* COc1cc(C(=O)N2CCC(Nc3cccnc3)CC2)ccc1C : Mtb glucose medium: 5.698%
* Cc1nn(C)c2ncnc(N(C)CC3CCN(CC(C)C)C3)c12 (centres undefined) : Mtb cholesterol medium: 71.96%
* CCc1ccc(CN(C/C=C/c2ccccc2)CCOC)nc1 : Mtb glucose medium: 55.27%
* CC(=O)N1CCCc2ccc(S(=O)(=O)N3CCCCC3C)cc21 (centres undefined) : Mtb glucose medium: 7.973%
* CCC(=O)c1ccc(OCC(=O)NCC2CCCO2)cc1 (centres undefined) : Mtb glucose medium: 3.254%
* OCCn1nccc1C1CCN(CCOc2cccc(F)c2)CC1 : Mtb glucose medium: 13.91%
* Cc1noc(C)c1CN1CC[C@H](OCC2CC2)[C@@H](Cc2ccccc2)C1 : Mtb glucose medium: 41.1%
* COc1cc(Oc2ncccc2C(F)(F)F)ccc1CN1CCCC1 : Mtb glucose medium: 54.89% & 36.96%
* CC(=O)Nc1ccc(SCC(O)COCc2ccccc2)cc1 (centres undefined) : Mtb glucose medium: 10.18% & -4.852%; Mtb cholesterol medium: 6.236%
* O=C(c1cc(Cl)c[nH]1)N(CCCO)Cc1cccnc1 : Mtb glucose medium: 0.6472%
* COc1cc2cc3c(nc2cc1OC)OCCN(Cc1ccco1)C3 : Mtb glucose medium: 6.118%
* C=Cc1ccc(C(=O)N2CCCC(Nc3ccc(F)cc3)C2)cc1 (centres undefined) : Mtb cholesterol medium: 31.05%
* CN1CCN(C(=O)NC2CC2)Cc2cccnc21.O=C(O)C(F)(F)F : Mtb glucose medium: -0.2836%
* CC(=O)Nc1cccc(-c2ccccc2CCN)c1 : Mtb glucose medium: 60.09%

Some entries from above, unchanged:

{"structure": "CN1CCCCC1c1ncc2c(n1)CCN(Cc1ccc(Cl)c(F)c1)C2", "stereo": "centres undefined", "Mtb glucose medium": 48.75}
{"structure": "COc1cc(C(=O)N2CCC(Nc3cccnc3)CC2)ccc1C", "Mtb glucose medium": 5.698}
{"structure": "Cc1nn(C)c2ncnc(N(C)CC3CCN(CC(C)C)C3)c12", "stereo": "centres undefined", "Mtb cholesterol medium": 71.96}
{"structure": "Cc1ccc(C)c(-n2cc(CN3CC[C@@H](O)C3)c(-c3ccccc3)n2)c1", "Mtb glucose medium": 71.73}